The results in this text go back to article PMC3280276 (PLoS ONE, 2012).

In test [1] the target is biotinylated peptide …, the final 11 residues of ribosomal stalk proteins P1 and P2.
For test [2] the target is unchanged. This is another data set of the same source.

Where two headings read alike, the source gives them in different places.

Usually Kd stands for a measure of binding affinity in units of concentration. A high value points to a looser complex. For “wild-type SLT-1 A1 chain (catalytic A1 chain of Shiga-like toxin 1)”, the figures for the Kd in test [1] and in test [2] were 13 µM and 10.6 µM, respectively.
